A mixed list of measured activities; the numbers were collected in NIAID ChemDB.

All rows: cytotoxicity tests; cell line: DAUDI; endpoint: CC50

CCn is the concentration with n% toxicity to the cells. Neighbouring rows are from separate reports.

compound,value
Nc1nc(N)c2ncn(/C=C3/CC3(CO)CO)c2n1,>191 µM
COC(=O)[C@H](C)NP(=O)(OC[C@H]1C/C1=C/n1cnc2c(N)nc(N)nc21)Oc1ccccc1,26.4 µM
O[C@@H]1[C@H](O)[C@H](O)CO[C@H]1n1c(Br)nc2cc(Cl)c(Cl)cc21,>94 µM
COC(=O)C(Cc1c[nH]c2ccccc12)NP(=O)(O)OCC1C/C1=C\n1cnc2c(N)ncnc21,>92 µM
CCCCCCCCCCCCOCCCOP(=O)(O)CO[C@H](CO)Cn1ccc(N)nc1=O,0.6 µM
Nc1nc(N)c2ncn(C=C3CC3CO)c2n1,>215 µM
Nc1nc2c(ncn2C/C=C2\CC2P(=O)(O)O)c(=O)[nH]1,>300 µM
Nc1nc2c(ncn2COCCO)c(=O)[nH]1,>187 µM
COC(=O)[C@H](C)NP(=O)(OCC1C/C1=C/n1cnc2c(N)ncnc21)Oc1ccccc1,>108 µM
COC(=O)C(C)NP(=O)(OC[C@@H]1C/C1=C/n1cc(C)c(=O)[nH]c1=O)Oc1ccccc1,>100 µM
CCCCCCCCCCCCCCCCOP1(=O)CO[C@@H](Cn2ccc(N)nc2=O)CO1,>1 µM
Cc1cn(C=C2CC2(F)CO)c(=O)[nH]c1=O,>221 µM
Nc1nc2c(ncn2/C=C2/CC2(CO)CO)c(=O)[nH]1,106 µM
COC(=O)C(C)NP(=O)(OC[C@@H]1C/C1=C\n1cc(C)c(=O)[nH]c1=O)Oc1ccccc1,>100 µM
COC(=O)[C@H](C)NP(=O)(OCC1C/C1=C/n1cnc2c(NC3CC3)nc(N)nc21)Oc1ccccc1,97 µM
CCCCCCCCCCCCOCCCOP1(=O)CO[C@@H](Cn2ccc(N)nc2=O)CO1,0.6 µM
CCCCCOc1nc(N)nc2c1ncn2/C=C1/C[C@@H]1CO,>99 µM
Nc1cn(/C=C2/C[C@H]2CO)c(=O)[nH]c1=O,>259 µM
COC(=O)[C@H](C)NP(=O)(OC[C@H]1C/C1=C/n1cnc2c(=O)[nH]c(N)nc21)Oc1ccccc1,>103 µM
COc1nc(N)nc2c1ncn2/C=C1/CC1(CO)CO,>108 µM
Nc1ccn(C[C@@H](CO)OCP(=O)(O)O)c(=O)n1,>159 µM
COC(=O)[C@H](C)NP(=O)(OC[C@H]1C/C1=C/n1cnc2c(OC)nc(N)nc21)Oc1ccccc1,3.7 µM
Nc1nc(Cl)c2ncn(C=C3C[C@H]3CO)c2n1,>199 µM

2 of the rows above, restated:

| compound | value |
|---|---|
| CCCCCOc1nc(N)nc2c1ncn2/C=C1/C[C@@H]1CO | >99 µM |
| Nc1nc(N)c2ncn(C=C3CC3CO)c2n1 | >215 µM |